Assay results from article PMC9606073 (Immunity, 2022).

Legend:
Conditions in all cases: both partners purified
SHC014-CoV RBD [1] = biological target: SHC014-CoV RBD (Bat SARS-like coronavirus RsSHC014, UniProt U5WLK5); test: SPR
Rs4081-CoV RBD [2] = biological target: Rs4081-CoV RBD (Rs4081 bat sarbecovirus (KY417143), UniProt A0A2D1PX44, strain); test: SPR
Rf1-CoV RBD = Rf1-CoV RBD (Bat SARS CoV Rf1/2004, UniProt Q0QDZ0, strain); test: SPR
Pangolin17-CoV RBD = Pangolin17-CoV RBD (Pangolin coronavirus (Pang17), GenBank …, strain); test: ELISA
RaTG13-CoV RBD = RaTG13-CoV RBD (Bat coronavirus RaTG13 (QHR63300), UniProt A0ABF7PLN6, strain); test: ELISA
SHC014-CoV RBD [3] = biological target: SHC014-CoV RBD (Bat SARS-like coronavirus RsSHC014, UniProt U5WLK5); test: ELISA
LYRa3 RBD = LYRa3 RBD (LYRa3 bat sarbecovirus (AHX37569.1), UniProt A0A023PTS3, strain); test: ELISA
C028 RBD = C028 RBD (SARS coronavirus C028, UniProt Q4JDM5, strain); test: ELISA
Rs4081-CoV RBD [4] = biological target: Rs4081-CoV RBD (Rs4081 bat sarbecovirus (KY417143), UniProt A0A2D1PX44, strain); test: ELISA

B1: C118 IgG (antibody, V domains shown)
VH: QVQLVESGGGVVQPGRSLRLSCAASGFTFSNYAMHWVRQAPGKGLEWVAVISYDGSNKYYADSVKGRFTISRDNSKNTLYLQMNSLRAEDTAIYYCASGYTGYDYFVRGDYYGLDVWGQGTTVTVSS
VL: QPVLTQSPSASASLGASVKLTCTLSSGHSSYAIAWHQQQPEKGPRYLMKLNTDGSHSKGDGIPDRFSGSSSGAERYLTISSLQSEDEADYYCQTWGTGILVFGGGTKLTVL
notes: copies: 2 + 2
SHC014-CoV RBD [1]
  Kd: 70 nM
  koff: 0.0089 s⁻¹
  kon: 130000 M⁻¹ s⁻¹
Rs4081-CoV RBD [2]
  Kd: 2.5 nM
  koff: 0.00018 s⁻¹
  kon: 72000 M⁻¹ s⁻¹
Rf1-CoV RBD
  Kd: 23 nM
  koff: 0.00096 s⁻¹
  kon: 42000 M⁻¹ s⁻¹

B2: M8a-3 IgG (antibody, V domains shown)
VH: QVQLQQPGAELVLPGASVKLSCKASGYTFTNYWMHWVKQRPGHGLEWIGEIDPFDTYIKINQKFKGKSTLTVDTSSSTAYMQLSSLTSEDSAVYYCARPDSSGYPVYFDYWGQGTTLTVSS
VL: DIVMTQSHKFMSTSVGDRVSITCKASQDVGTYIAWYQQKPGQSPKLLIYWASTRHTGVPDRFTGSGSGTNYTLTISSVQAEDLALYHCQQHYSTPYTFGGGTKLEIK
notes: copies: 2 + 2
SHC014-CoV RBD [1]
  Kd: 0.48 nM
  koff: 0.0002 s⁻¹
  kon: 410000 M⁻¹ s⁻¹
Rs4081-CoV RBD [2]
  Kd: 14 nM
  koff: 0.0019 s⁻¹

B3: M8a-6 IgG (antibody, V domains shown)
VH: QVQLQQPGTELVMPGASVKLSCKTSGYTFTHYWMHWVKQRPGEGLEWIGEIAPSDNYVKYNQKFKGKSTLSVDRSSSTAYMQLSSLTSEDSAVYFCARPDNSGYPVYFDYWGQGTSLTVSS
VL: DIVMTQSQKFMSTSLGDRVSISCKASQDVGTTVAWYQQKPGQSPKLLIYWASTRHTGVPDRFTGTGSGTDYTLTISSVAAEDLALYYCQQHYNTPYTFGGGTKLEIE
notes: copies: 2 + 2
SHC014-CoV RBD [1]
  Kd: 545 nM
Rs4081-CoV RBD [2]
  Kd: 3000 nM
Rf1-CoV RBD
  Kd: 710 nM

B4: M8a-34 IgG (antibody, V domains shown)
VH: QVQLQQPGAELVKPGASVKMSCKASGYTFITYWITWVKQRPGQGLEWIGDIYPGGGRTNYNEKFKSKATLTVDTSSSTAYMQLRSLTSEDSAVYYCARYDGNYVGYYYAMDYWGQGTSVTVSS
VL: DIVLTQSPVSLAVSLGQRATISCRASESVDFYGNSFIYWYQQKPGQAPKLLIYRASNLESGIPARFSGSGSRTDFTLTIHPVEADDVATYYCQQSIEDPRTFGGGTKLEIK
notes: copies: 2 + 2
Pangolin17-CoV RBD
  binding result: binds
RaTG13-CoV RBD
  binding result: binds
SHC014-CoV RBD [3]
  binding result: binds
LYRa3 RBD
  binding result: binds
C028 RBD
  binding result: binds
Rs4081-CoV RBD [4]
  binding result: binds

B5: M8a-3 IgG (antibody, V domains shown)
VH: B2 VH
VL: B2 VL
notes: copies: 2 + 2
Pangolin17-CoV RBD
  binding result: binds
RaTG13-CoV RBD
  binding result: binds
LYRa3 RBD
  binding result: binds
C028 RBD
  binding result: binds

B6: M8a-31 IgG (antibody, V domains shown)
VH: EVQLKQSVAELVRPGASVKVSCTASGFNIKNIYMHWVKQRPEQGLDWIGRIDPANGNSRYAPKFQDKATITADTSSNTAYLQLSSLTSEDTAIYYCADEGWGFANWGQGTLVTVSA
VL: DIVMTQSPSSLTVTAGEKVTMSCKSSQSLLNSGNQKNYLTWYQQKVGQPPKLLIYWASTRDPGVPDRFTGSGFGTDFTLTISSVQAEDLAVYYCQNDYSYPLTFGAGTKVELK
notes: copies: 2 + 2
Pangolin17-CoV RBD
  binding result: binds
RaTG13-CoV RBD
  binding result: binds
SHC014-CoV RBD [3]
  binding result: binds
LYRa3 RBD
  binding result: binds
C028 RBD
  binding result: binds
Rs4081-CoV RBD [4]
  binding result: binds
